Measurements reported in PubChem BioAssay AID1259414 (Drosophila RNAi Screening Center, 2018)

Test: 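Fly genes that alter Wolbachia amount inside host cells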 (primary screen)
Cells: Drosophila JW18 cells infected with Wolbachia
Knock-down reagent: long dsRNA against Drosophila genes, 0.25 µg dsRNA per well of a 384-well plate
Duration: 5 days
Treatment: cells persistently infected with Wolbachia before knock-down; no added drug
Detection: 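Automated imaging of bacterial rRNA staining divided by host cell count, reported as plate-normalised robust z-score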
Direction: Wolbachia per cell robust z: higher = more Wolbachia per host cell than the plate typical
Hit rule: 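Active if absolute robust z reaches 1.5 in two or more of three replicates, leaving out multi- or no-target dsRNAs, genes unexpressed in JW18 and A1 wells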
In all, the deposit lists about 24,000 reagents; this is a random part of those with a known target gene and a result. Of all reagents, about 1,210 (5%) were called active. 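Inactive calls also include excluded dsRNAs with several or no targets, genes unexpressed in JW18, and well A1, regardless of score.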 No sequences are given here.

Cul3 [DRSC03537]
- Wolbachia per cell robust z, rep 1: 0.54
- Wolbachia per cell robust z, rep 2: 0.729
- Wolbachia per cell robust z, rep 3: -3.1
- activity call: inactive

Cul3 [DRSC21525]
- Wolbachia per cell robust z, rep 1: -0.844
- Wolbachia per cell robust z, rep 2: -1.18
- Wolbachia per cell robust z, rep 3: -0.152
- activity call: inactive

Cul3 [DRSC26199]
- Wolbachia per cell robust z, rep 1: -0.0527
- Wolbachia per cell robust z, rep 2: 0.391
- Wolbachia per cell robust z, rep 3: -0.331
- activity call: inactive

Cul3 [DRSC27885]
- Wolbachia per cell robust z, rep 1: 2.32
- Wolbachia per cell robust z, rep 2: 1.41
- Wolbachia per cell robust z, rep 3: 0.997
- activity call: inactive

Saysd1 [DRSC14664]
- Wolbachia per cell robust z, rep 1: 0.726
- Wolbachia per cell robust z, rep 2: 0.238
- Wolbachia per cell robust z, rep 3: -1.48
- activity call: inactive

CG2291 [DRSC06836]
- Wolbachia per cell robust z, rep 1: 0.0609
- Wolbachia per cell robust z, rep 2: 1.03
- Wolbachia per cell robust z, rep 3: -1.31
- activity call: inactive

CG12204 [DRSC19442]
- Wolbachia per cell robust z, rep 1: 0.0457
- Wolbachia per cell robust z, rep 2: -0.000717
- Wolbachia per cell robust z, rep 3: -0.226
- activity call: inactive

CG12204 [DRSC26143]
- Wolbachia per cell robust z, rep 1: -1.11
- Wolbachia per cell robust z, rep 2: -1.36
- Wolbachia per cell robust z, rep 3: -0.772
- activity call: inactive

CG8539 [DRSC10988]
- Wolbachia per cell robust z, rep 1: -0.868
- Wolbachia per cell robust z, rep 2: -0.419
- Wolbachia per cell robust z, rep 3: -0.662
- activity call: inactive

CG8539 [DRSC21798]
- Wolbachia per cell robust z, rep 1: -0.448
- Wolbachia per cell robust z, rep 2: -0.571
- Wolbachia per cell robust z, rep 3: -0.859
- activity call: inactive

CG8539 [DRSC28192]
- Wolbachia per cell robust z, rep 1: -0.173
- Wolbachia per cell robust z, rep 2: 0.135
- Wolbachia per cell robust z, rep 3: -0.971
- activity call: inactive

CR33221 [DRSC21201]
- Wolbachia per cell robust z, rep 1: 0.444
- Wolbachia per cell robust z, rep 2: 1.34
- Wolbachia per cell robust z, rep 3: 0.628
- activity call: inactive

CG6565 [DRSC02970]
- Wolbachia per cell robust z, rep 1: 0.762
- Wolbachia per cell robust z, rep 2: -1.16
- Wolbachia per cell robust z, rep 3: 1.41
- activity call: inactive

Pgam5-2 [DRSC04278]
- Wolbachia per cell robust z, rep 1: 0.396
- Wolbachia per cell robust z, rep 2: 0.619
- Wolbachia per cell robust z, rep 3: 2.71
- activity call: inactive

Pgam5-2 [DRSC41370]
- Wolbachia per cell robust z, rep 1: -2.08
- Wolbachia per cell robust z, rep 2: -0.47
- Wolbachia per cell robust z, rep 3: 1.08
- activity call: inactive

wtrw [DRSC14241]
- Wolbachia per cell robust z, rep 1: -0.393
- Wolbachia per cell robust z, rep 2: -0.356
- Wolbachia per cell robust z, rep 3: 0.383
- activity call: inactive

wtrw [DRSC15278]
- Wolbachia per cell robust z, rep 1: -0.403
- Wolbachia per cell robust z, rep 2: -0.721
- Wolbachia per cell robust z, rep 3: -1.71
- activity call: inactive

wtrw [DRSC29977]
- Wolbachia per cell robust z, rep 1: 0.153
- Wolbachia per cell robust z, rep 2: 0.826
- Wolbachia per cell robust z, rep 3: 0.292
- activity call: inactive

CG32110 [DRSC09220]
- Wolbachia per cell robust z, rep 1: 0.29
- Wolbachia per cell robust z, rep 2: -1.69
- Wolbachia per cell robust z, rep 3: 0.182
- activity call: inactive

CG11837 [DRSC14397]
- Wolbachia per cell robust z, rep 1: 0.0257
- Wolbachia per cell robust z, rep 2: 0.946
- Wolbachia per cell robust z, rep 3: -6.76
- activity call: inactive

CG3631 [DRSC15503]
- Wolbachia per cell robust z, rep 1: -0.343
- Wolbachia per cell robust z, rep 2: 0.048
- Wolbachia per cell robust z, rep 3: -0.0514
- activity call: inactive

CG3631 [DRSC29768]
- Wolbachia per cell robust z, rep 1: -1.76
- Wolbachia per cell robust z, rep 2: -0.437
- Wolbachia per cell robust z, rep 3: -7.84
- activity call: active

CG43192 [DRSC40542]
- Wolbachia per cell robust z, rep 1: -0.174
- Wolbachia per cell robust z, rep 2: 0.5
- Wolbachia per cell robust z, rep 3: -0.421
- activity call: inactive

snRNP-U1-70K [DRSC03612]
- Wolbachia per cell robust z, rep 1: -3.85
- Wolbachia per cell robust z, rep 2: 1.1
- Wolbachia per cell robust z, rep 3: 0.763
- activity call: inactive

snRNP-U1-70K [DRSC22071]
- Wolbachia per cell robust z, rep 1: 0.673
- Wolbachia per cell robust z, rep 2: 0.692
- Wolbachia per cell robust z, rep 3: 0.835
- activity call: inactive

snRNP-U1-70K [DRSC28803]
- Wolbachia per cell robust z, rep 1: 1.85
- Wolbachia per cell robust z, rep 2: 2.72
- Wolbachia per cell robust z, rep 3: 2.11
- activity call: active

Quoted from the listing (3 entries):
Cul3 [DRSC03537]
- Wolbachia per cell robust z, rep 1: 0.54
- Wolbachia per cell robust z, rep 2: 0.729
- Wolbachia per cell robust z, rep 3: -3.1
- activity call: inactive

Cul3 [DRSC21525]
- Wolbachia per cell robust z, rep 1: -0.844
- Wolbachia per cell robust z, rep 2: -1.18
- Wolbachia per cell robust z, rep 3: -0.152
- activity call: inactive

Cul3 [DRSC26199]
- Wolbachia per cell robust z, rep 1: -0.0527
- Wolbachia per cell robust z, rep 2: 0.391
- Wolbachia per cell robust z, rep 3: -0.331
- activity call: inactive
